The NIST ThermoML archive (doi:10.1016/j.jct.2013.10.018)

Settings: 101.33 kPa, Liquid; for speed of sound: Sing-around technique in a fixed-path interferometer; for mass density: Vibrating tube method

CCCCOP(=O)(OCCCC)OCCCC [tributyl phosphate]
Settings | mass density [kg/m3] | speed of sound [m/s]
298.15 K | 972.77 | 1265
303.15 K | 968.46 | 1248
308.15 K | 964.15 | 1231
313.15 K | 959.84 | 1214
318.15 K | 955.52 | 1198
323.15 K | 951.2 | 1181
